Anti-infective test results gathered from many reports (values: NIAID ChemDB through PubChem).

All rows: growth or infection tests; species: Cryptococcus neoformans; measure: MIC90

A number after MIC or MFC names an inhibition level or a share of isolates. Rows are shuffled and stem from different studies. Blank or dashed fields: not listed here.

| SMILES | strain | method | result |
|---|---|---|---|
| CCCCCOc1ccc(-c2cc(-c3ccc(C(=O)N[C@H]4C[C@@H](O)[C@@H](O)NC(=O)[C@@H]5[C@@H](O)[C@@H](C)CN5C(=O)[C@H]([C@H](O)CC(N)=O)NC(=O)[C@H]([C@H](O)[C@@H](O)c5ccc(O)c(OS(=O)(=O)O)c5)NC(=O)[C@@H]5C[C@@H](O)CN5C(=O)[C@H]([C@@H](C)O)NC4=O)cc3)no2)cc1 | 5 isolates | - | >64 µg/mL |
| Nc1[nH]c(=O)ncc1F | 12 strains | - | 16 µg/mL |
| CCC(C)CC(C)CCCCCCCCC(=O)N[C@H]1C[C@@H](O)[C@H](NCCN)NC(=O)[C@@H]2[C@@H](O)CCN2C(=O)[C@H]([C@H](O)CCN)NC(=O)[C@H]([C@H](O)[C@@H](O)c2ccc(O)cc2)NC(=O)[C@@H]2C[C@@H](O)CN2C(=O)[C@H]([C@@H](C)O)NC1=O | 10 strains | - | >16 µg/mL |
| CCC(C)n1ncn(-c2ccc(N3CCN(c4ccc(OC[C@H]5CO[C@](Cn6cncn6)(c6ccc(Cl)cc6Cl)O5)cc4)CC3)cc2)c1=O | 12 strains | - | 1 µg/mL |
| C=C1CO[C@H]2[C@@H](C)OC(OC[C@@]34C[C@H]5[C@H](C)CC[C@@H]5[C@@]5(C=O)C[C@@H]3C=C(C(C)C)[C@@]45C(=O)O)C[C@@H]12 | 16 strains (serotype D) | - | 1 µg/mL |
| CC[C@@H]([C@H](C)O)n1ncn(-c2ccc(N3CCN(c4ccc(OC[C@@H]5CO[C@@](Cn6cncn6)(c6ccc(F)cc6F)C5)cc4)CC3)cc2)c1=O | 15 strains | - | 0.06 µg/mL |
| CC[C@@H]([C@H](C)O)n1ncn(-c2ccc(N3CCN(c4ccc(OC[C@@H]5CO[C@@](Cn6cncn6)(c6ccc(F)cc6F)C5)cc4)CC3)cc2)c1=O | 373 isolates | - | 0.5 µg/mL |
| CC(N1CCN(c2ccc(-n3cnn(Cc4ccc(OC(F)(F)F)cc4)c3=O)cc2)CC1)C(O)(Cn1cncn1)c1ccc(F)cc1F | 8 strains | - | 0.19 µg/mL |
| COc1cc(O)c2c(c1)C(=O)c1c(cc3c(c1O)-c1c(cc(C)c(C(=O)NC(CO)C(=O)O)c1O)[C@H](OC1OC(C)C(O)C(OC4OCC(O)C(O)C4O)C1O)C3O)C2=O | 32 isolates | - | 4 µg/mL |
| CCCCCOc1ccc(-c2ccc(-c3ccc(C(=O)N[C@H]4C[C@@H](O)[C@@H](O)NC(=O)[C@@H]5[C@@H](O)[C@@H](C)CN5C(=O)[C@H]([C@H](C)O)NC(=O)[C@H]([C@H](O)[C@@H](O)c5ccc(O)cc5)NC(=O)[C@@H]5C[C@@H](O)CN5C(=O)[C@H]([C@H](C)O)NC4=O)cc3)cc2)cc1 | 15 strains | - | >8 µg/mL |
| C[C@H]1[C@H](O)[C@@H](C)/C=C/C=C/C=C/C=C/C=C/C=C/C=C/[C@H](O[C@@H]2O[C@H](C)[C@@H](O)[C@H](N)[C@@H]2O)C[C@@H]2O[C@](O)(C[C@@H](O)C[C@@H](O)CC[C@H](O)[C@@H](O)C[C@@H](O)CC(=O)O[C@H]1C)C[C@H](O)[C@H]2C(=O)O | - | - | 0.1 µg/mL |
| C[C@@H](SC1COC(/C=C/C=C/c2ccc(C#N)cc2F)OC1)[C@](O)(Cn1cncn1)c1ccc(F)cc1F | 22 strains | - | ≤0.008 µg/mL |
| CCC(C)CC(C)CCCCCCCCC(=O)N[C@H]1C[C@@H](O)[C@H](NCCN)NC(=O)[C@@H]2[C@@H](O)CCN2C(=O)[C@H]([C@H](O)CCN)NC(=O)[C@H]([C@H](O)[C@@H](O)c2ccc(O)cc2)NC(=O)[C@@H]2C[C@@H](O)CN2C(=O)[C@H]([C@@H](C)O)NC1=O | 19 strains | - | 32 µg/mL |
| CN[C@H]1CC[C@@H](c2ccc(Cl)c(Cl)c2)c2ccccc21 | 98BC1-86 | broth dilution | 5 µg/mL |
| C[C@H]1[C@H](O)[C@@H](C)/C=C/C=C/C=C/C=C/C=C/C=C/C=C/[C@H](O[C@@H]2O[C@H](C)[C@@H](O)[C@H](N)[C@@H]2O)C[C@@H]2O[C@](O)(C[C@@H](O)C[C@@H](O)CC[C@H](O)[C@@H](O)C[C@@H](O)CC(=O)O[C@H]1C)C[C@H](O)[C@H]2C(=O)O | 15 isolates | - | 0.25 µg/mL |
| C[C@H]1[C@H](O)[C@@H](C)/C=C/C=C/C=C/C=C/C=C/C=C/C=C/[C@H](O[C@@H]2O[C@H](C)[C@@H](O)[C@H](N)[C@@H]2O)C[C@@H]2O[C@](O)(C[C@@H](O)C[C@@H](O)CC[C@H](O)[C@@H](O)C[C@@H](O)CC(=O)O[C@H]1C)C[C@H](O)[C@H]2C(=O)O | 12 strains | - | 0.125 µg/mL |
| C=C1CO[C@H]2[C@@H](C)OC(OC[C@@]34C[C@H]5[C@H](C)CC[C@@H]5[C@@]5(C=O)C[C@@H]3C=C(C(C)C)[C@@]45C(=O)O)C[C@@H]12 | 20 strains | - | 0.25 µg/mL |
| C[C@H]1[C@H](O)[C@@H](C)/C=C/C=C/C=C/C=C/C=C/C=C/C=C/[C@H](O[C@@H]2O[C@H](C)[C@@H](O)[C@H](N)[C@@H]2O)C[C@@H]2O[C@](O)(C[C@@H](O)C[C@@H](O)CC[C@H](O)[C@@H](O)C[C@@H](O)CC(=O)O[C@H]1C)C[C@H](O)[C@H]2C(=O)O | 37 strains | - | 0.125 µg/mL |
| CCC(C)n1ncn(-c2ccc(N3CCN(c4ccc(OC[C@H]5CO[C@](Cn6cncn6)(c6ccc(Cl)cc6Cl)O5)cc4)CC3)cc2)c1=O | 32 isolates | - | 0.008 µg/mL |
| Cc1cccc(N(C)C(=S)Oc2ccc3c(c2)C2CCC3C2)c1 | 33 strains | - | 1.25 µg/mL |
| CC(C)C(N)CCC(C)C1CC[C@@]2(C)C3=C(CCC12C)C1(C)CC[C@H](O)C(C)(C)C1CC3 | A.34144 | - | 0.1 µg/mL |
| CC(N1CCN(c2ccc(-n3cnn(Cc4ccc(OC(F)(F)F)cc4)c3=O)cc2F)CC1)C(O)(Cn1cncn1)c1ccc(F)cc1F | 8 strains | - | 0.19 µg/mL |

A second listing of 2 rows from above:

SMILES	strain	method	result
CC[C@@H]([C@H](C)O)n1ncn(-c2ccc(N3CCN(c4ccc(OC[C@@H]5CO[C@@](Cn6cncn6)(c6ccc(F)cc6F)C5)cc4)CC3)cc2)c1=O	15 strains	-	0.06 µg/mL
C[C@@H](SC1COC(/C=C/C=C/c2ccc(C#N)cc2F)OC1)[C@](O)(Cn1cncn1)c1ccc(F)cc1F	22 strains	-	≤0.008 µg/mL